Results of unrelated studies side by side (data: NIAID ChemDB).

Common to all: whole-cell or culture tests; species: Cryptococcus neoformans

MIC50, MIC90 and the like: level of inhibition, or share of isolates inhibited. Lines come from different laboratories, so protocols vary. An empty or dashed field is not shown.

smiles | method | measure | strain or isolate | result
COc1ccc(/C=C2\COc3ccc(-c4ccccc4)cc3C2=O)cc1 | - | MIC | 93/V | 50 µg/mL
C[C@H]1[C@H](O)[C@@H](C)/C=C/C=C/C=C/C=C/C=C/C=C/C=C/[C@H](O[C@@H]2O[C@H](C)[C@@H](O)[C@H](N)[C@@H]2O)C[C@@H]2O[C@](O)(C[C@@H](O)C[C@@H](O)CC[C@H](O)[C@@H](O)C[C@@H](O)CC(=O)O[C@H]1C)C[C@H](O)[C@H]2C(=O)O | - | MIC | A25838 | 0.13 µg/mL
C[C@H]([C@](O)(Cn1cncn1)c1ccc(F)cc1F)S(C)(=O)=O | - | MIC | R715 (AZOLE-R) | 9 µM
Cc1nc(NCCCCNc2ccnc3cc(Cl)ccc23)nc(-c2ccccc2[N+](=O)[O-])c1C(=O)OC(C)C | - | MIC99 | 27JF | 16 µg/mL
O=C1/C(=C/c2ccc3c(c2)OCO3)CSc2ccccc21 | - | MIC | 25 | 1.5 µg/mL
CC[C@@H]([C@H](C)O)n1ncn(-c2ccc(N3CCN(c4ccc(OC[C@@H]5CO[C@@](Cn6cncn6)(c6ccc(F)cc6F)C5)cc4)CC3)cc2)c1=O | - | MIC | DUMC114.90 | 0.063 µg/mL
COc1ccccc1/C=C1\CSc2ccc(Cl)cc2C1=O | - | MIC | Farwania | 12.5 µg/mL
CCOC(=O)c1c(C)nc(NCCCCNc2ccnc3cc(Cl)ccc23)nc1-c1ccccc1 | - | MIC99 | 27JF | 4 µg/mL
O=C1/C(=C/c2ccc(O)cc2)CCc2ccccc21 | - | MIC | Farwania | 100 µg/mL
Oc1ccc(O)c(C=Nc2ccccc2O)c1 | - | MIC99 | WP | 8 µg/mL
CN[C@H]1CC[C@@H](c2ccc(Cl)c(Cl)c2)c2ccccc21 | broth dilution | MIC90 | A7-35-23 | 3 µg/mL
Cn1nc(Cc2ccc(Cl)cc2)c2ccccc2c1=O | broth dilution | MIC50 | Clinical isolate (IM 031633) | 7.8 µg/mL
C[C@@H](n1cnc2cc(Cl)ccc2c1=O)[C@](O)(Cn1cncn1)c1ccc(F)cc1F | - | MFC | Isolate 133.95 | 20 µg/mL
O=C1/C(=C/c2ccc3c(c2)OCO3)CCc2ccccc21 | - | MIC | 93/V | 50 µg/mL
Oc1ccccc1N=Cc1ccccc1 | broth dilution | MIC | F-10 | 5.7 µg/mL
COc1ccccc1/C=C1\CSc2ccccc2C1=O | - | MIC | 25 | 25 µg/mL
Oc1ccccc1N=Cc1ccc(O)c(O)c1O | broth dilution | MIC | ATCC 62066 | 5.7 µg/mL
C[C@@H](c1ncncc1F)[C@](O)(Cn1cncn1)c1ccc(F)cc1F | broth dilution | MIC | ATCC90112 | 0.125 µg/mL
CCOC(=O)c1c(C)nc(OCCCNc2ccnc3cc(Cl)ccc23)nc1-c1ccccc1 | - | MIC | ATCC 24067 | 5.7 µg/mL
C[C@@H]1[C@H](O)[C@@H](C)/C=C/C=C/C=C/C=C/C=C/C=C/C=C/[C@H](O[C@@H]2O[C@H](C)[C@@H](O)[C@H](N)[C@@H]2O)C[C@@H]2O[C@](O)(C[C@@H](O)C[C@@H](O)[C@H](O)CC[C@@H](O)C[C@@H](O)CC(=O)O[C@H]1C)C[C@H](O)[C@H]2C(=O)O | broth dilution | MIC | Clinical isolate (IM 000319) | 0.13 µg/mL
CCOC(=O)c1cnc(NCCCCNc2ccnc3cc(Cl)ccc23)nc1C | - | MIC99 | 27JF | 4 µg/mL
C[C@@H](n1ncn(-c2ccc(OCC(F)(F)C(F)F)cc2)c1=O)[C@](O)(Cn1cncn1)c1ccc(F)cc1F | - | MFC | DUMC 114.95 | 1 µg/mL
O=[N+]([O-])c1ccc(C=Nc2ccccc2O)cc1 | - | MIC99 | 5396 | 22.6 µg/mL
O=C1/C(=C/c2ccc(Cl)cc2)CCc2ccccc21 | - | MIC | 25 | 6 µg/mL

2 of the rows above, restated:

smiles	method	measure	strain or isolate	result
CN[C@H]1CC[C@@H](c2ccc(Cl)c(Cl)c2)c2ccccc21	broth dilution	MIC90	A7-35-23	3 µg/mL
COc1ccccc1/C=C1\CSc2ccccc2C1=O	-	MIC	25	25 µg/mL